Anti-infective test results gathered from many reports (values: NIAID ChemDB through PubChem).

All rows: growth or infection tests; organism: Hepatitis C virus; method: replicon; endpoint: EC50

Conditions beyond the fields shown may differ between rows. ECn: concentration that inhibits the pathogen or its effect by n%.

CC(C)CN(CC(=O)NC(C)(C)CC(C)(C)C)C(=O)CCN1C(=O)[C@H](C)C2CC[C@H](C)C3CCC4(C)OO[C@]32C1O4 ; cell line: Huh 5-2 ; value: 5 µM
CCCC(NC(=O)[C@@H]1[C@@H]2CCC[C@@H]2CN1C(=O)[C@@H](NC(=O)OC(C)C)C(C)C)C(=O)C(=O)N[C@@H](C)c1ccccc1 ; cell line: Huh7 ; value: >50 µM
C=C[C@@H]1C[C@]1(NC(=O)[C@@H]1C[C@@H](Oc2cc(-c3ccccc3)nc3cc(OC)ccc23)CN1C(=O)[C@@H](Nc1ccccc1[N+](=O)[O-])C(C)(C)C)C(=O)NS(=O)(=O)C1CC1 ; cell line: Huh7 ; strain: 1b ; value: <5 µM
CN(C)c1ncnc2c1ncn2[C@@H]1O[C@H](CO)[C@@H](O)[C@H]1O ; value: 7 µM
Cn1c(-c2ccccn2)c(C2CCCCC2)c2ccc(C(=O)N[C@@]3(C(=O)Nc4ccc(/C=C/C(=O)O)cc4)CCCNC3)cc21 ; setting: genotype 1b ; value: 0.025 µM
CN(C)C(=O)c1ccc(-c2ccc(Cl)cc2)c(COc2ccc(-c3nc4cc(C(=O)O)ccc4n3C3CCCCC3)cc2)c1 ; cell line: Huh7 ; value: 0.84 µM
C[C@H]1CCC2[C@@H](C)C(=O)N(CCC(=O)N(CC(=O)NCc3ccccc3)Cc3ccccc3)C3O[C@]4(C)CCC1[C@@]23OO4 ; cell line: Huh 5-2 ; value: 3 µM
C=C[C@@H]1C[C@]1(NC(=O)[C@@H]1C[C@@H](Oc2cc(-c3ccccc3)nc3cc(OC)ccc23)CN1C(=O)[C@@H](NC(=O)CF)C(C)(C)C)C(=O)NS(=O)(=O)C1CC1 ; cell line: Huh7 ; strain: 1b ; value: <0.05 µM
C=C1CC[C@H]2C(=C)CC[C@H]3C(=C)C(=O)O[C@@H]3[C@@H]12 ; cell line: Huh7 ; value: 3.08 µM
C=C[C@@H]1C[C@]1(NC(=O)[C@@H]1C[C@@H](Oc2cc(-c3ccccc3)nc3cc(OC)ccc23)CN1C(=O)[C@@H](NC(=O)OC(C)(C)C)C(C)(C)C)C(=O)NS(=O)(=O)c1ccccc1C(=O)OC ; cell line: Huh7 ; strain: 1b ; value: <0.5 µM
CCC[C@H](NC(=O)C1CC(Oc2cc(-c3ccccc3)nc3cc(OC)ccc23)CN1C(=O)[C@@H](NC(=O)OC(C)(C)C)C(C)C)C(=O)NS(=O)(=O)CCc1ccccc1 ; cell line: Huh7 ; value: >10 µM
Nc1ncnc2c1ncn2[C@@H]1O[C@H](OCCP(=O)(O)O)[C@@H](O)[C@H]1O ; cell line: Huh7 ; value: 200 µM
C[C@@]1(O)[C@H](O)[C@@H](CO)O[C@H]1n1ccc(N)nc1=O ; cell line: Huh 5-2 ; value: 0.8 µM
CC(C)CCn1c(=O)/c(=C2\Nc3ccccc3S(=O)(=O)N2)c(=O)c2cccn21 ; cell line: HCV Huh-7/C24 ; strain: 1b ; value: 5.3 µM
N#Cc1cn([C@@H]2O[C@H](CO)[C@@H](O)[C@H]2O)c2ncnc(NCc3ccccc3)c12 ; value: 5 µM
CCCC(NC(=O)[C@@H]1C2CCCC2CN1C(=O)[C@@H](NC(=O)[C@@H](CC(C1CCCCC1)C1CCCCC1)NC(=O)c1cnccn1)C(C)(C)C)C(=O)C(=O)NC1CC1 ; cell line: Huh7 ; value: 2.81 µM
N=C(N)c1cn([C@@H]2O[C@H](CO)[C@@H](O)[C@H]2O)c2nc[nH]c(=O)c12 ; value: 100 µM
CCC[C@H](NC(=O)[C@@H]1[C@H]2CCC[C@H]2CN1C(=O)[C@@H](NC(=O)[C@@H](NC(=O)c1cnccn1)C1CCCCC1)C(C)(C)C)C(=O)C(=O)NC1CC1 ; cell line: Huh7 ; value: 0.31 µM
C=C[C@H]1CC1(NC(=O)[C@@H]1C[C@@H](Oc2cc(-c3ccccc3)nc3cc(OC)ccc23)CN1C(=O)[C@@H](NC(=O)OC(C)(C)C)C(C)C)C(=O)O ; cell line: Huh7 ; value: 3.2 µM
CCC[C@]1(CC(=O)O)OCCc2c1[nH]c1c(C)ccc(C#N)c21 ; strain: 1b BBT (WT) ; value: 12.2 µM
CC(C)CCn1c(=O)/c(=C2\Nc3ccc(NS(C)(=O)=O)cc3S(=O)(=O)N2)c(=O)c2cc(F)cn21 ; cell line: HCV Huh-7/C24 ; strain: 1b ; value: 0.019 µM
C#CCOC(=O)N[C@H](C(=O)N1C[C@H](Oc2cc(-c3ccccc3)nc3cc(OC)ccc23)C[C@H]1C(=O)N[C@]1(C(=O)NS(=O)(=O)C2CC2)C[C@H]1C=C)C(C)(C)C ; cell line: Huh7 ; strain: 1b ; value: <0.05 µM
CCC[C@H](NC(=O)[C@@H]1C2CCCC2CN1C(=O)[C@@H](NC(=O)[C@@H](NC(=O)c1cnccn1)C1CCCCC1)C(C)(C)C)C(=O)C(=O)N[C@@H](C)c1ccc(C)cc1 ; cell line: Huh7 ; value: 0.47 µM
CCC[C@H](NC(=O)C1CC(Oc2cc(-c3ccccc3)nc3cc(OC)ccc23)CN1C(=O)[C@@H](NC(=O)OC(C)(C)C)C(C)C)C(=O)NS(=O)(=O)C(C)C ; cell line: Huh7 ; value: >10 µM
O=C(CNCC(=O)c1ccccc1)Nc1ccc(C2SC(=Nc3cccc(F)c3)N(Cc3ccco3)C2=O)cc1 ; setting: genotype 1b ; strain: genotype 1 ; value: 5 µM
O=C(O)c1ccc2c(c1)nc(-c1ccc(OCc3ccccc3-c3ccc(Cl)cc3)cc1)n2C1CCCCC1 ; cell line: Huh7 ; value: 3.2 µM
Cn1c(-c2ccccn2)c(C2CCCCC2)c2ccc(C(=O)NC3(C(=O)Nc4ccc(/C=C/C(=O)O)cc4)CCC3)cc21 ; setting: genotype 1b ; value: 0.047 µM
COc1ncnc2c1c(C#N)cn2[C@@H]1O[C@H](CO)[C@@H](O)[C@H]1O ; value: 0.4 µM
CC1=CCC[C@@]2(C)O[C@H]2[C@H]2OC(=O)[C@@H](C)[C@@H]2CC1 ; cell line: Huh7 ; value: >10 µM
CSc1ncnc2c1c(C#N)cn2[C@@H]1O[C@H](CO)[C@@H](O)[C@H]1O ; value: 0.4 µM
Cn1c(-c2ccccn2)c(C2CCCCC2)c2ccc(C(=O)NC3(C(=O)Nc4ccc(/C=C/C(=O)O)cc4)CCOCC3)cc21 ; setting: genotype 1b ; value: 0.18 µM
C[C@H]1CCC2[C@@H](C)C(=O)N(CCC(=O)N(CC(=O)NC(C)(C)CC(C)(C)C)C3CCCC3)C3OC4(C)CCC1[C@@]23OO4 ; cell line: Huh 5-2 ; value: 4 µM
O=C(CN[C@@H](CSCc1ccccc1)C(=O)Nc1ccc(C2SC(=Nc3cccc(F)c3)N(Cc3ccco3)C2=O)cc1)c1ccccc1 ; setting: genotype 1b ; strain: genotype 1 ; value: >50 µM
CCOC(=O)CN(CC(N)=O)C(=O)CCN1C(=O)[C@H](C)C2CC[C@H](C)C3CC[C@]4(C)OO[C@]32C1O4 ; cell line: Huh 5-2 ; value: 4 µM
CN1CCCC(NC(=O)c2ccc3c(C4CCCCC4)c(-c4ccccn4)n(C)c3c2)(C(=O)Nc2ccc(/C=C/C(=O)O)cc2)C1 ; setting: genotype 1b ; value: 0.14 µM
C/C1=C\CC[C@@]2(C)O[C@H]2[C@H]2OC(=O)[C@@H](CN3CCCCC3)[C@@H]2CC1 ; cell line: Huh7 ; value: 1.64 µM
CCC[C@H](NC(=O)[C@@H]1C2CCCC2CN1C(=O)[C@@H](NC(=O)[C@@H](NC(=O)c1cnccn1)C1CCCCC1)C(C)(C)C)C(=O)C(=O)N[C@@H](C)c1ccncc1 ; cell line: Huh7 ; value: 0.31 µM
C[C@H]1CCC2[C@@H](C)C(=O)N(CCC(=O)N(CC=O)CC(=O)NC3CCCCC3)C3OC4(C)CCC1[C@@]23OO4 ; cell line: Huh 5-2 ; value: 7 µM
CN(C)c1ncnc2c1c(/C(N)=N/O)cn2[C@@H]1O[C@H](CO)[C@@H](O)[C@H]1O ; value: 9 µM
CCN(CC(=O)NC1CCCCC1)C(=O)CCN1C(=O)[C@H](C)C2CC[C@H](C)C3CCC4(C)OO[C@]32C1O4 ; cell line: Huh 5-2 ; value: 8 µM
C=C[C@@H]1C[C@]1(NC(=O)[C@@H]1C[C@@H](Oc2cc(-c3ccccc3)nc3cc(OC)ccc23)CN1C(=O)[C@@H](NC(=O)OC1CCOC1)C(C)(C)C)C(=O)NS(=O)(=O)C1CC1 ; cell line: Huh7 ; strain: 1b ; value: <0.05 µM
C/C1=C\CC[C@@]2(C)O[C@H]2[C@H]2OC(=O)[C@@H](CN3CCCCCC3)[C@@H]2CC1 ; cell line: Huh7 ; value: 2.05 µM
Cc1ccc(S(=O)(=O)CNC(=O)CN(CC(C)C)C(=O)CCN2C(=O)[C@H](C)C3CC[C@H](C)C4CC[C@]5(C)OO[C@]43C2O5)cc1 ; cell line: Huh 5-2 ; value: 3 µM

For reference, 3 entries again:

{"structure": "CCC[C@]1(CC(=O)O)OCCc2c1[nH]c1c(C)ccc(C#N)c21", "strain": "1b BBT (WT)", "value": "12.2 µM"}
{"structure": "CCC[C@H](NC(=O)[C@@H]1C2CCCC2CN1C(=O)[C@@H](NC(=O)[C@@H](NC(=O)c1cnccn1)C1CCCCC1)C(C)(C)C)C(=O)C(=O)N[C@@H](C)c1ccc(C)cc1", "cell line": "Huh7", "value": "0.47 µM"}
{"structure": "C[C@H]1CCC2[C@@H](C)C(=O)N(CCC(=O)N(CC=O)CC(=O)NC3CCCCC3)C3OC4(C)CCC1[C@@]23OO4", "cell line": "Huh 5-2", "value": "7 µM"}